{"source": "patent US20250382332A1", "about": "“NOVEL ALPHA-FACTOR BASED PEPTIDES WITH ANTIFUNGAL ACTIVITY” (INVAIO SCIENCES, INC., priority 2024, published 2025)", "test_system": "Botrytis cinerea (B05.10)", "experiment": "Resazurin antifungal assay of 23 alpha-factor peptides (dimers, hybrids) towards Botrytis (Example 15, Table 6)", "format": "cell-based", "conditions": "% inhibition of fungal growth", "description": "The antifungal activity of […] alpha-factor peptide variants towards Botrytis was tested. Experimental design:\nPeptides corresponding to SEQ ID NO: 261-264 and 401-420 were chemically synthesized using the solid-phase synthesis method and resuspended in water to a stock solution of 1 mM. The stock solution was aliquoted in cryovials and stored at −80° C.\nThe Botrytis cinerea culture (B05.10) isolate was acquired from the Centraalbureau voor Schimmelcultures, the Netherlands. The Botrytis fungus was propagated on 0.5% V8 agar plates (200 ml V8 Juice, 3 g CaCO3, 15 g agar, 800-ml millipore water) at 20° C., in a 12 h photoperiod for 21 days.\nFungal conidia were harvested by scraping a Botrytis plate flooded with 1 ml water with 0.1% Tween 80 solution. Conidia were then collected in a 50 ml falcon tube by passing the solution through a 40 micron filter. The solution was then centrifuged at 6000 rpm and the pellet was resuspended in 1 ml of 20% glycerol. The conidia concentration of the resulting solution was counted using a hemocytometer. […]\nPeptides were tested for activity against Botrytis, using the resazurin assay. […] Fluorescence was measured at 570/620 nm after 4 h of incubation with resazurin.\nGrowth inhibition was calculated by subtracting the fluorescence values of conidia only wells from sample wells and depicted as % inhibition of fungal growth. […]", "data": [{"smiles": "CSCC[C@H](NC(=O)[C@@H]1CCCN1C(=O)[C@H](CCC(N)=O)NC(=O)CNC(=O)[C@@H]1CCCN1C(=O)[C@H](CCCCN)NC(=O)[C@H](CC(C)C)NC(=O)[C@H](CCC(N)=O)NC(=O)[C@H](CC(C)C)NC(=O)[C@H](Cc1c[nH]c2ccccc12)NC(=O)[C@H](Cc1c[nH]cn1)NC(=O)[C@H](Cc1c[nH]c2ccccc12)NC(=O)[C@H](CCCNC(=N)N)NC(=O)[C@H](CCCNC(=N)N)NC(=O)[C@H](CCCNC(=N)N)NC(=O)[C@H](CCCNC(=N)N)NC(=O)[C@H](CCCNC(=N)N)NC(=O)[C@H](CCCNC(=N)N)NC(=O)[C@H](CCCNC(=N)N)NC(=O)[C@@H](N)CCCNC(=N)N)C(=O)N[C@@H](Cc1ccc(O)cc1)C(=O)O", "note": "[compound 419]", "values": [{"measurement": "Inhibition at 50 μM", "setting": "peptide 50 μM", "result": 100, "unit": "%"}, {"measurement": "Inhibition at 100 μM", "setting": "peptide 100 μM", "result": 100, "unit": "%"}]}]}
